The source of these data is article PMC6894885, “NCOA2 promotes lytic reactivation of Kaposi’s sarcoma-associated herpesvirus by enhancing the expression of the master switch protein RTA” (PLoS Pathogens, 2019).

In the experiment the target is T1, GST-fused NCOA2 (human, UniProt Q15596 1-1464).
T1 construct: also called GST-NCOA2; GST-tagged NCOA2 fusion protein
The experiment is described as follows: pull-down.

B1: His-tagged RTA (natural protein)
chain: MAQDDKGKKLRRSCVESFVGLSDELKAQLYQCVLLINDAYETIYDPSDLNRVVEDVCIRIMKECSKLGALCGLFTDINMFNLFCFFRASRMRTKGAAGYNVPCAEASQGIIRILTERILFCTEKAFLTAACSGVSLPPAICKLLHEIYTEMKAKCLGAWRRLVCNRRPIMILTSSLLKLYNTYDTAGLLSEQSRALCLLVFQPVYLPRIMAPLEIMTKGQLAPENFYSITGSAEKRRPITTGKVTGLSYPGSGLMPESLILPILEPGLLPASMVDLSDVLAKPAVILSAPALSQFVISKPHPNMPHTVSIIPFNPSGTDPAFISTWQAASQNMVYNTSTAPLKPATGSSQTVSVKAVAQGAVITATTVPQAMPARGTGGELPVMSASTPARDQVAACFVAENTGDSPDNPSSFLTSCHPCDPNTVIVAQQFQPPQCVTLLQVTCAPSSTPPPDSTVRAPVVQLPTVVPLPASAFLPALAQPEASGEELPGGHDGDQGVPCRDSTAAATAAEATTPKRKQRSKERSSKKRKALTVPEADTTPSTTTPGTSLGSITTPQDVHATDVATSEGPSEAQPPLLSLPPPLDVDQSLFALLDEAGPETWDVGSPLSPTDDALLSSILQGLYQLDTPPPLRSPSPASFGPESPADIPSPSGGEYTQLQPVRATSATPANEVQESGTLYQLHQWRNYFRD
Take B1: the binding result is reported as “binds”.
